Results taken from patent US20230272054A1, “COMBINATION THERAPIES FOR THE TREATMENT AND PREVENTION OF BIOFILMS” (priority 2020, published 2023).

Columns and labels:
B. cenocepacia = assay: Murine model of lung infection by B. cenocepacia, bacterial burden; conditions: 10^7 CFU i.t.; 0.2 nmol i.t. at time of challenge; 18 hpi
UPEC biofilms = conditions: 24 h UPEC biofilms, rHMGB1 200 nM, 16 h
NTHI biofilms = NTHI biofilms incubated with rHMGB1 alone or with antibiotics, planktonic and biofilm CFU; conditions: 24 h NTHI biofilms, rHMGB1 200 nM alone, 16 h

B1: rHMGB1: recombinant HMGB1 derived from a human, expressed and purified in E. coli, SEQ ID NO: 51; comparator to mHMGB1 (protein, listed as Homo sapiens)
chain: MGKGDPKKPRGKMSSYAFFVQTCREEHKKKHPDASVNFSEFSKKCSERWKTMSAKEKGKFEDMAKADKARYEREMKTYIPPKGETKKKFKDPNAPKRPPSAFFLFCSEYRPKIKGEHPGLSIGDVAKKLGEMWNNTAADDKQPYEKKAAKLKEKYEKDIAAYRAKGKPDAAKKGVVKAEKSKKKKEEEEGEEDEEDEEEEEDEEDEDEEEDDDDE
bacterial burden within the lungs (BAL CFU), prevention (B. cenocepacia): significantly facilitated the clearance of B. cenocepacia from the lungs | bacteria in the planktonic state (UPEC biofilms): induced the partitioning of bacteria from biofilm residence into the planktonic state | shift of NTHI from biofilm-residence into the planktonic state (NTHI biofilms): induced a shift of bacteria from biofilm-residence into the planktonic state
